What was measured:
Format in all cases: cell-based
[1] = system: Pseudomonas aeruginosa (strain PA01); settings: MHC on hRBC / MIC PAO1
Method: (§1) Antimicrobial activity was assayed against Bacillus subtilis (strain BR151), Escherichia coli (strain DH5α) and Pseudomonas aeruginosa (strain PA01). Microdilution broth method was used to determine the minimal inhibitory concentration (MIC). A colony of bacteria was grown in LB-medium overnight at 37° C. The concentration was quantified by measuring absorbance at 600 nm and diluted to OD600=0.1 (1×10^8 CFU/mL). The samples were prepared as stock solutions of 1 mg mL^−1 in H2O and diluted serially by ⅔ in nutrient LB in a 96-well microtiterplate (Cornstar, polypropylene, untreated). The sample solutions (50 μL) were mixed with the diluted bacterial suspension with an OD600 nm of 0.001 (50 μL). […] The plates were incubated at 37° C. until satisfactory growth (18-24 h). For each test, two columns of the plate were kept for sterility control (SC, broth only) and growth control (GC, broth with bacterial inoculums, no antibiotics). 10 μL of a solution of MTT (0.1% in H2O) was added to each well. The minimal inhibitory concentration (MIC) was defined as the lowest concentration of the antimicrobial substance (peptide dendrimer) that inhibited visible growth of the tested bacteria (yellow) with the unaided eye. For microbiological study the linear peptide LysTyrLysLysAlaLeuLysLysLeuAlaLysLeuLeu (SEQ ID No. 1) was used as reference.
All peptides were tested for their activity against P. aeruginosa PAO1 in a broth dilution assay (Wiegand, I. et al., 2008, Nat. Protoc., 3, 163-75; Clinical and Laboratory Standards Institute document M7-A7 7th Edition) to determine the MIC (minimal inhibitory concentration) values. The stock solutions of the peptide dendrimers were diluted serially by ⅔ in nutrient LB in 96-well microtiter plates. Bacteria were grown in nutrient LB overnight at 37° C. After dilution the bacteria were added to the peptides and incubated overnight (18-24 h) at 37° C. […] The position of the amino acids between the branching units seems to be optimal if the hydrophobic amino acid is the first counting from C-terminus and the charged one is on the second position. […]

[2] = system: Bacillus subtilis (strain BR151); settings: MHC on hRBC / MIC B. subtilis
Method: as §1
(§2) The AMPD library was tested for their antimicrobial activity against B. subtilis BR151, a Gram-positive bacterium and E. coli DH5α, another Gram-negative bacterium, to cover a broader spectrum of different bacteria. […] Therefore no explicit SAR can be established, but clearly the hydrophobic amino acids Ala and Tyr seem to have a significant influence in reducing activity.

[3] = system: Escherichia coli (strain DH5α); settings: MHC on hRBC / MIC E. coli
Method: as §1, §2

(KLL)4(KKLL)2(KKLL) [MIS-02] was tested, and the “TI (therapeutic index = MHC/MIC), P. aeruginosa PAO1” value [1] was 5 and the “TI (MHC/MIC), B. subtilis BR151” value [2] was 15.
For “(DabL)8(KDabW)4(KDabW)2(KDabL) [MSt-204]”, the “TI (therapeutic index = MHC/MIC), P. aeruginosa PAO1” value [1] was 49, the “TI (MHC/MIC), E. coli DH5α” value [3] was 73 and the “TI (MHC/MIC), B. subtilis BR151” value [2] was 73.
With (LA)8(KLK)4(KLA)2(KKL) [MSt-120] the “TI (therapeutic index = MHC/MIC), P. aeruginosa PAO1” value [1] was 42.
“(KL)32(KKL)16(KKLCxKL)8(KKL)4(KKL)2KKL [CCS-15]” was tested, and the “TI (MHC/MIC), E. coli DH5α” value [3] was 1 and the “TI (MHC/MIC), B. subtilis BR151” value [2] was 0.3.
For (KKL)4(KKKL)2(KKKL) [MIS-03], the “TI (MHC/MIC), B. subtilis BR151” value [2] was 36.

From US10336792B2 (priority 2014, dated 2019)
